The target in the experiment is wild-type 3CL^pro (Severe acute respiratory syndrome coronavirus 2, UniProt P0DTD1). The experiment is classed as binding, SARS-CoV-2.

On to `O=C(Nc1ccc(N(Cc2ccsc2)C(=O)Cn2nnc3ccccc32)cc1)C1CC1` [ML300], for which the ΔG is recorded as -7.0 kcal mol -1, the ΔH is on record as -9.6 ± 0.2 kcal mol -1 and the ΔS is -8.6 cal mol -1 K-1.

(Values after PMC13347698 (Analytical Chemistry, 2026).)
